## HIV-1 5' UTR: DMS reactivities by position

The measurements come from Ye et al. 2022 (doi:10.1038/s41594-022-00746-2).

RNA: 5' end of the HIV-1 NL4-3 genome, made in vitro. Positions 1-437 read:
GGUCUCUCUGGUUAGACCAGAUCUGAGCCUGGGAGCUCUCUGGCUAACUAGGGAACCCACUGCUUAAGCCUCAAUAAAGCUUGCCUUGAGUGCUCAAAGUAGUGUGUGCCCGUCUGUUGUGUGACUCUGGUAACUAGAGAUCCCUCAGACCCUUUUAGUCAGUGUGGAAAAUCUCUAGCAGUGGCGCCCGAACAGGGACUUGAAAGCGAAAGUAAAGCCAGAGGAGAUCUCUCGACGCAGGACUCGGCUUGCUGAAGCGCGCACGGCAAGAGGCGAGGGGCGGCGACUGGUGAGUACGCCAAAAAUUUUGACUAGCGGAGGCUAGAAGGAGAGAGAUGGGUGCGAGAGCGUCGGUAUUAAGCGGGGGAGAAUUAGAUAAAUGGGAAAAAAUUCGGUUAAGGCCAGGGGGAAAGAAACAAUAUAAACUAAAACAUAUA

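Mutant RNA libraries with 1G, 2G or 3G starts, with or without cap, were folded at 37 °C for 30 min. Monomer and dimer bands were cut from native gels after folding in high salt (300 mM KCl, 5 mM MgCl2) or low salt (40 mM KCl, 0.1 mM MgCl2). Gel slices were treated with 170 mM dimethyl sulfate for 15 min at 37 °C and read by mutational profiling against an ethanol control.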

Values are winsor-normalised DMS reactivities of A and C; higher means more reactive, usually unpaired.
One numbering serves 1G, 2G and 3G.
A position is written with its base.

position,domain,1G capped low-salt dimer,3G uncapped low-salt monomer
A301,none,0.28,0.27
A376,none,0.76,0.71
A216,PBS,0.63,0.64
C264,SL1,0.26,0.50
C281,none,0.37,0.36
A227,CU,0.30,0.34
C70,PolyA,0.05,0.03
C284,SL2,0.16,0.20
A225,none,0.78,0.80
C299,SL2,0.06,0.06
A101,PolyA,0.17,0.31
C38,TAR,0.05,0.03
A203,PBS,0.51,0.51
C274,SL1,0.32,0.82
C312,SL3,0.09,0.12
C60,PolyA,0.14,0.79
A371,none,0.94,0.92
A334,AUG,0.45,0.47
C188,PBS,0.09,0.06
C267,SL1,0.10,0.13
C231,CU,0.12,0.23
A276,SL1,0.53,1.19
C146,PBS,0.12,0.12
A210,PBS,0.50,0.53
A414,none,0.50,0.43
A435,none,0.51,0.48
C29,TAR,0.15,0.11
C72,PolyA,0.18,0.10
C262,SL1,0.30,0.38
A239,none,0.72,0.59
A330,none,0.89,0.96
C248,SL1,0.05,0.06
C111,U5,0.22,0.31
C207,PBS,0.62,0.45
C236,none,0.47,0.51
C432,none,0.90,0.83
A433,none,0.73,0.69
C233,CU,0.18,0.36
C134,PBS,0.16,0.16
C193,PBS,0.77,0.95
A132,PBS,0.56,0.55
C252,SL1,0.08,0.32
C36,TAR,0.08,0.03
A235,none,0.76,0.61
A380,none,0.84,0.79
A211,PBS,0.47,0.41
A256,SL1,1.05,0.78
C187,PBS,0.05,0.03
C84,PolyA,0.72,0.22
C219,antiPAS,0.05,0.03
A242,none,1.09,0.81
C245,SL1,0.09,0.34
A429,none,0.70,0.67
A204,PBS,0.71,0.71
A149,PBS,0.09,0.09
A412,none,0.51,0.46
A424,none,0.36,0.30
A263,SL1,0.76,0.23
A327,none,1.08,1.00
A177,PBS,0.24,0.24
A379,none,0.59,0.55
C48,TAR,0.16,0.03
A390,none,0.89,0.93